Reference: publication PMC7587356, “High-Throughput Screening for Inhibitors of the SARS-CoV-2 Protease Using a FRET-Biosensor” (Molecules, 2020)
Where two headings read alike, the source gives them in different places.

Target: SARS-CoV-2 3CLpro (Severe acute respiratory syndrome coronavirus 2, UniProt P0DTD1)

(±)-Atenolol showed a Replicate_1 of -0.6467, a Replicate_2 of 2.515 and a mean of 0.9342.

Work on Foliosidine yielded a Replicate_1 (sheet LOPAC_screen_w_protease, primary screen of LOPAC1280 at 5 µM with protease, replicate 1) of 4.819.

Substance S(-)-DS 121 hydrochloride has a Replicate_2 (sheet LOPAC_screen_w_protease, primary screen with protease, replicate 2) of 1.663.

With S(-)-UH-301 hydrochloride the “Replicate_2 (LOPAC_screen_w_protease)” value (LOPAC1280 primary screen with protease, 5 µM compound, replicate 2) was 1.6636.
